Compound potency records, mixed from different reports. Data source: NIAID ChemDB in PubChem.

Common to all: tests in culture; agent: Candida albicans

ECn: concentration that inhibits the pathogen or its effect by n%. Neighbouring rows are from separate reports. A number after MIC or MFC names an inhibition level or a share of isolates. An empty or dashed field is not shown.

structure,endpoint,conditions,read by,strain,value
Cc1ccc(C(C)C)cc1,MLC,-,-,M1,>10 µg/mL
OC(Cn1cncn1)(Cn1cncn1)c1ccc(F)cc1F,MIC80,-,-,TIMM3317 (azole-resistant),>256 µg/mL
C[C@@H](c1ncncc1F)[C@](O)(Cn1cncn1)c1ccc(F)cc1F,MIC90,48 h,-,Isolate M27-T-micro,0.78 µg/mL
Cc1[nH]cnc1CSC[C@@H](N)C(=O)N[C@H]1[C@@H](O)[C@H](n2cnc3c(N)ncnc32)O[C@@H]1C(=O)O,MIC,-,-,FP633,3.1 µg/mL
COc1ccc(CN2C[C@H](OC[C@@]34C[C@@H]5[C@H](C)CC[C@H]5[C@@]5(C=O)C[C@@H]3CC(C(C)C)[C@@]45C(=O)O)O[C@H](C)C2)cc1,MIC,-,-,4711E,≤0.001 µg/mL
c1ccc(CO/N=C(/Cn2ccnc2)c2ccccc2)cc1,MIC,-,-,PR1,64 µg/mL
Nc1ncccc1-c1cc(Cc2ccc(COc3ccccn3)cc2)no1,MIC50,-,broth dilution,-,<0.008 µg/mL
Clc1ccc(/C(Cn2ccnc2)=N\OCc2ccccc2)cc1,MIC,-,-,Y0109,16 µg/mL
C=CCN1C[C@H](OC[C@@]23C[C@@H]4[C@H](C)CC[C@H]4[C@@]4(C=O)C[C@@H]2CC(C(C)C)[C@@]34C(=O)O)O[C@H](C)C1,MIC,-,-,CL-245 (fluconazole-resistant),≤0.001 µg/mL
CC1C=C(c2cccc(F)c2)C(=O)O1,MIC,-,-,ATCC 44859,>125 µM
Cc1c(S(=O)(=O)c2ccccc2)[n+](=O)c2ccccc2n1[O-],MIC,-,-,Clinical isolate 22,7.8 µg/mL
CCC(C)n1ncn(-c2ccc(N3CCN(c4ccc(OC[C@H]5CO[C@](Cn6cncn6)(c6ccc(Cl)cc6Cl)O5)cc4)CC3)cc2)c1=O,MIC50,-,broth dilution,-,0.016 µg/mL
CC1C=C(c2ccc(Br)c(Br)c2)C(=O)O1,MIC,-,-,ATCC 44859,>125 µM
CCC(C)CC(C)CCCCCCCCC(=O)N[C@H]1C[C@@H](O)[C@H](NCCN)NC(=O)[C@@H]2[C@@H](O)CCN2C(=O)[C@H]([C@H](O)CCN)NC(=O)[C@H]([C@H](O)[C@@H](O)c2ccc(O)cc2)NC(=O)[C@@H]2C[C@@H](O)CN2C(=O)[C@H]([C@@H](C)O)NC1=O,MIC,-,broth dilution,CLY16996,>16 µg/mL
C[C@@H](c1ncncc1F)[C@](O)(Cn1cncn1)c1ccc(F)cc1F,EC90,pH 6,broth dilution,15 isolates,0.03 µg/mL
NC(=NC1CCCC1)c1ccc(-c2ccc(-c3ccc(C(N)=NC4CCCC4)cc3)o2)cc1,MIC,-,-,Isolate 2370 fluconazole-resistant,12.5 µg/mL
CCC(C)CC(C)CCCCCCCCC(=O)N[C@H]1C[C@@H](O)[C@H](NCCN)NC(=O)[C@@H]2[C@@H](O)CCN2C(=O)[C@H]([C@H](O)CCN)NC(=O)[C@H]([C@H](O)[C@@H](O)c2ccc(O)cc2)NC(=O)[C@@H]2C[C@@H](O)CN2C(=O)[C@H]([C@@H](C)O)NC1=O,EC90,pH 4,broth dilution,15 isolates,0.25 µg/mL
CCCCCCCCOc1ccc(CON2C(N)=NC(N)=NC2(C)C)cc1,MIC,-,-,-,7.5 µg/mL
COc1ccc(C2c3c(nc(=O)[nH]c3N)Oc3c2c(C)nn3-c2ccccc2)cc1,MIC,-,-,MTCC 227,250 µg/mL
Nc1ncnc2c1ncn2[C@@H]1O[C@H](C(=O)O)[C@@H](NC(=O)C2CSCN2)[C@H]1O,MIC,-,-,FP633,>100 µg/mL
Clc1ccc(COC(Cn2ccnc2)c2ccc(Cl)cc2Cl)c(Cl)c1,EC90,pH 4,broth dilution,10 isolates,1 µg/mL
Clc1ccc(/C(Cn2ccnc2)=N/OCc2ccccc2)c(Cl)c1,MIC,-,-,3M,8 µg/mL
CCOc1cc2c(cc1F)n([O-])c(C)c(S(=O)(=O)c1ccccc1)[n+]2=O,MIC,-,-,Clinical isolate 5,15.6 µg/mL
CCCCCCCCCCON1C(N)=NC(N)=NC1CCCCC,MIC,-,-,-,30 µg/mL
C[C@H]1[C@H](O)[C@@H](C)/C=C/C=C/C=C/C=C/C=C/C=C/C=C/[C@H](O[C@@H]2O[C@H](C)[C@@H](O)[C@H](N)[C@@H]2O)C[C@@H]2O[C@](O)(C[C@@H](O)C[C@@H](O)CC[C@H](O)[C@@H](O)C[C@@H](O)CC(=O)O[C@H]1C)C[C@H](O)[C@H]2C(=O)O,MIC50,-,-,19 strains,0.5 µg/mL
Cc1c(S(=O)(=O)c2ccccc2)[n+](=O)c2cc(Cl)ccc2n1[O-],MIC,-,-,Clinical isolate 4,15.6 µg/mL
Nc1nc(CSCC(N)C(=O)N[C@H]2[C@@H](O)[C@H](n3cnc4c(N)ncnc43)O[C@@H]2C(=O)O)cs1,MIC,-,-,FP633,1.6 µg/mL
Cc1ccc(C2C(C#N)=C(N)Oc3c2c(C)nn3-c2ccccc2)cc1,MIC,-,-,MTCC 227,500 µg/mL
NCCCC[C@H](N)C(=O)N[C@H]1[C@@H](O)[C@H](n2cnc3c(N)ncnc32)O[C@@H]1C(=O)O,MIC,-,-,FP633,>100 µg/mL
C=C(CF)CN1C[C@H](OC[C@@]23C[C@@H]4[C@H](C)CC[C@H]4[C@@]4(C=O)C[C@@H]2CC(C(C)C)[C@@]34C(=O)O)O[C@H](C)C1,MIC,-,-,4711E,≤0.001 µg/mL
CC(C)S(=O)(=O)N1CCN(c2cnn(-c3cc(F)cc(F)c3)c(=O)c2OC2CCC(F)C2)CC1,MIC,-,broth dilution,C294,0.125 µg/mL
Cc1c(Sc2ccccc2)[n+](=O)c2cc(C(F)(F)F)ccc2n1[O-],MIC,-,-,Clinical isolate 7,31.25 µg/mL
COC(=O)[C@H]1O[C@@H](n2cnc3c(N)ncnc32)[C@H](O)[C@@H]1NC(=O)[C@@H](N)Cc1ccc(OC)cc1,MIC,-,-,FP633,>100 µg/mL
Fc1ccc(/C(Cn2ccnc2)=N/OCc2ccccc2)cc1,MIC,-,-,CDCB385,16 µg/mL
CCC1C=C(c2ccc(Cl)cc2)C(=O)O1,MIC,-,-,ATCC 44859,>125 µM
CCCCCCCCCCON1C(N)=NC(N)=NC1(C)C,MIC,-,-,-,30 µg/mL
Clc1ccc(/C(Cn2ccnc2)=N/OCc2ccccc2)cc1,MIC,-,-,CA12,>128 µg/mL
CC1(C)N=C(N)N=C(N)N1OCCCCCCCCCCON1C(N)=NC(N)=NC1(C)C,MIC,-,-,-,30 µg/mL
C[C@H](N)C(=O)N[C@H]1[C@@H](O)[C@H](n2cnc3c(N)ncnc32)O[C@@H]1C(=O)O,MIC,-,-,FP633,100 µg/mL
CC1C=C(c2cc3ccccc3s2)C(=O)O1,MIC,-,-,ATCC 44859,>125 µM
COc1ccc(C2C(C#N)=C(N)Oc3c2c(C)nn3-c2ccccc2)cc1,MIC,-,-,MTCC 227,200 µg/mL
Nc1[nH]c(=O)ncc1F,MIC50,-,-,Fluconazole-susceptible,0.12 µg/mL
CC(NC(=O)[C@H]1O[C@@H](n2cnc3c(N)ncnc32)[C@H](O)[C@@H]1NC(=O)C(N)CSCc1ccccc1)P(=O)(O)O,MIC,-,-,FP633,1.6 µg/mL
COc1ccc(C2c3c(nc(=S)[nH]c3N)Oc3c2c(C)nn3-c2ccccc2)cc1,MIC,-,-,MTCC 227,250 µg/mL
Nc1ncnc2c1ncn2[C@@H]1O[C@H](C(=O)O)[C@@H](NC(=O)[C@H](N)Cc2ccccc2)[C@H]1O,MIC,-,-,FP633,>100 µg/mL
COC(=O)[C@H]1[C@@H]2C[C@@H](O[C@@H]3O[C@H](C)[C@@H](O)[C@H](N)[C@@H]3O)/C=C/C=C/C=C/C=C/C=C/C=C/C=C/[C@H](C)[C@@H](O)[C@H](C)[C@H](C)OC(=O)C[C@H](O)C[C@H](O)[C@@H](O)CC[C@H](O)C[C@H](O)C[C@](O)(C[C@@H]1O)O2,MIC,pH 4,broth dilution,10 isolates,16 µg/mL